Experimental data reported in PMC12750222, “Cytosporone B Affects ATP Production of Trypanosoma cruzi: A Lethal Action Investigation” (ACS Omega, 2025).

System: T. cruzi intracellular amastigotes
Experiment: Antiamastigote assay in infected peritoneal macrophages (Giemsa, infection index)
Assay type: cell-based, Trypanosoma cruzi
Settings: ratio between CC50 in NCTC cells and IC50 in intracellular amastigotes
Procedure: Murine conjunctive cells (NCTC clone 929, ATCC) and rhesus monkey kidney cells (LLC-MK2, ATCC CCL 7) were maintained in RPMI-1640 supplemented with 10% fetal bovine serum (FBS) at 37 °C in 5% CO2 humidified incubator. Peritoneal macrophages were collected by washing the peritoneal cavity of BALB/c mice with RPMI-1640 medium (Sigma-Aldrich) supplemented with 10% FBS, and were maintained at 37 °C in a 5% CO2 humidified incubator. T. cruzi trypomastigotes (Y strain) were cultivated by continuous in vitro passage in LLC-MK2, in RPMI-1640 supplemented with 2% FBS at 37 °C in 5% CO2 humidified incubator. Antitrypomastigote activity was evaluated in vitro using trypomastigotes obtained from infected LLC-MK2 cell cultures. […]
Macrophages were seeded in 16-well chamber slides (NUNC Thermo Fisher Scientific, USA) and after 24 h infected with trypomastigotes (1:5, host cell/parasite ratio) for 2 h. […] After treatment, the cells were fixed and stained with Giemsa, and the slides were analyzed under a digital light microscope (EVOS M500, Thermo Fisher Scientific, USA). The infection index was determined by counting 200 macrophages and calculating the percentage of infected cells multiplied by the average number of amastigotes per infected macrophage. […]

| Compound | SI (selectivity index) |
| --- | --- |
| CCCCCCCC(=O)c1c(O)cc(O)cc1CC(=O)O [Compound 5, Cytosporone A] | >6.7 |
| Dothiorelone Q [Compound 4] | >4.6 |
